According to US20080227128A1, “Resonance Energy Transfer System and Method” (Mount Sinai School of Medicine of New York University, priority 2004, published 2008):

Tested on: L1-BRET construct
Test: BRET assay, L1-BRET construct transfected in HEK-293 cells
Format: cell-based, Human
Conditions: n=5

## O=[As]c1ccccc1 (stereo not shown)
  effect on the BRET ratio of the L1-BRET construct: significant decrease in the BRET ratio
